Measured values from several laboratories, pooled; numbers as filed in NIAID ChemDB.

All rows: tests in culture; organism: Candida tropicalis

MIC50, MIC90 and the like: level of inhibition, or share of isolates inhibited.

COc1ccc(-c2cc(=O)c3c(O)c([C@@H]4O[C@H](CO)[C@@H](O)[C@H](O)[C@H]4O)c(O)cc3o2)cc1O ; measure: MIC ; read by: broth dilution ; strain or isolate: ATCC 750 ; value: >500 µg/mL
C[C@H]1N(C(=O)c2ccc(C(F)(F)F)cc2)CCO[C@@]1(Cn1cncn1)c1ccc(F)cc1F ; measure: MIC ; strain or isolate: Isolate 1 ; value: 64 µg/mL
O=C(/C=C/c1ccccc1Cl)OC1CCN(CC(O)(Cn2cncn2)c2ccc(F)cc2F)CC1 ; measure: MIC80 ; read by: broth dilution ; value: 0.124 µM
CCCCN(Cc1cn(Cc2ccc(F)cc2)nn1)CC(O)(Cn1cncn1)c1ccc(F)cc1F ; measure: MIC80 ; value: 0.5 µg/mL
CC(C)(C)c1ccccc1N1C(=O)C=CC1=O ; measure: MIC80 ; read by: broth dilution ; strain or isolate: KKP 334 ; value: 1 µg/mL
CCOc1ccc2nc3cc(N=C4NC(=O)/C(=C\C=C\c5ccc([N+](=O)[O-])o5)S4)ccc3c(N)c2c1 ; measure: MFC ; read by: broth dilution ; strain or isolate: ATCC 8302 ; value: 1000 µg/mL
Clc1ccc(C(c2ccccc2)n2cncn2)cc1 ; measure: MFC ; read by: broth dilution ; value: 64 µg/mL
CN(C)CCN1C(=O)C=CC1=O ; measure: MIC80 ; read by: broth dilution ; strain or isolate: KKP 334 ; value: 64 µg/mL
CCOC(=O)c1c(N)oc2ccc(O)cc12 ; measure: MIC ; read by: broth dilution ; strain or isolate: KCCM 50662 ; value: 25 µg/mL
O=C(CCl)OC1CCN(CC(O)(Cn2cncn2)c2ccc(F)cc2F)CC1 ; measure: MIC80 ; read by: broth dilution ; value: 2.415 µM
COC(=O)[C@H]1[C@@H]2C[C@@H](O[C@@H]3O[C@H](C)[C@@H](O)[C@H](N)[C@@H]3O)/C=C/C=C/C=C/C=C/C=C/C=C/C=C/[C@H](C)[C@@H](O)[C@H](C)[C@H](C)OC(=O)C[C@H](O)C[C@H](O)[C@@H](O)CC[C@H](O)C[C@H](O)C[C@](O)(C[C@@H]1O)O2 ; measure: MIC ; strain or isolate: Isolate 93-681 fluconazole-susceptible ; value: <0.25 µg/mL
Cc1cc(C)c(N2C(=O)C=CC2=O)c(C)c1 ; measure: MIC80 ; read by: broth dilution ; strain or isolate: KKP 334 ; value: 0.5 µg/mL
CCCCN(Cc1cn(Cc2cccc(C#N)c2)nn1)CC(O)(Cn1cncn1)c1ccc(F)cc1F ; measure: MIC80 ; value: >64 µg/mL
O=C(/C=C/c1ccc([N+](=O)[O-])cc1)OC1CCN(CC(O)(Cn2cncn2)c2ccc(F)cc2F)CC1 ; measure: MIC80 ; read by: broth dilution ; value: 0.122 µM
Clc1ccc(C(c2ccccc2)n2ccnc2)cc1 ; measure: MIC90 ; read by: agar ; value: 0.5 µg/mL
O=C1C=CC(=O)N1c1ccc(Br)cc1 ; measure: MIC80 ; read by: broth dilution ; strain or isolate: KKP 334 ; value: 2 µg/mL
CCC(C)CC(C)CCCCCCCCC(=O)N[C@H]1C[C@@H](O)[C@H](NCCN)NC(=O)[C@@H]2[C@@H](O)CCN2C(=O)[C@H]([C@H](O)CCN)NC(=O)[C@H]([C@H](O)[C@@H](O)c2ccc(O)cc2)NC(=O)[C@@H]2C[C@@H](O)CN2C(=O)[C@H]([C@@H](C)O)NC1=O ; measure: MIC ; strain or isolate: Isolate 425 (AMB FCZ 5FC-susceptible) ; value: 0.25 µg/mL
c1ccc(C(c2ccccc2)n2cnc3ccccc32)cc1 ; measure: MIC90 ; read by: agar ; value: >256 µg/mL
CC(C)(C)c1ccc(/C=C2\SC(=O)N(CC(O)(Cn3nccn3)c3ccc(F)cc3F)C2=O)cc1 ; measure: MIC80 ; value: 0.5 µg/mL
c1ccc(C(c2ccccc2)n2cncn2)cc1 ; measure: MFC ; read by: broth dilution ; value: >256 µg/mL
O=C1S/C(=C\c2ccccc2Br)C(=O)N1CC(O)(Cn1nccn1)c1ccc(F)cc1F ; measure: MIC80 ; value: >100 µg/mL
CCCCN(Cc1cn(Cc2ccccc2[N+](=O)[O-])nn1)CC(O)(Cn1cncn1)c1ccc(F)cc1F ; measure: MIC80 ; value: 2 µg/mL
O=C1S/C(=C\c2ccccc2)C(=O)N1CC(O)(Cn1nccn1)c1ccc(F)cc1F ; measure: MIC80 ; value: 0.56 µg/mL
Clc1ccc(C(c2ccccc2)N2CCN(CCn3cncn3)CC2)cc1 ; measure: MFC ; read by: broth dilution ; value: 32 µg/mL
C[C@@H](c1ncncc1F)[C@](O)(Cn1cncn1)c1ccc(F)cc1F ; measure: MIC ; read by: broth dilution ; strain or isolate: 8663 ; value: 0.03 µg/mL
c1ccc(C(c2ccccc2)n2nnc3ccccc32)cc1 ; measure: MIC90 ; read by: agar ; value: >256 µg/mL
COC(=O)c1ccc(C[C@H](C(=O)OC)[C@@H](O)C(=O)OC)cc1 ; measure: MIC ; strain or isolate: KKP 334 ; value: 1 µg/mL
CCCCCCCCCCCCCC[C@@H]1CCCN1C ; measure: MIC ; strain or isolate: HB ; value: 25 µg/mL
C[C@H]1[C@H](O)[C@@H](C)/C=C/C=C/C=C/C=C/C=C/C=C/C=C/[C@H](O[C@@H]2O[C@H](C)[C@@H](O)[C@H](N)[C@@H]2O)C[C@@H]2O[C@](O)(C[C@@H](O)C[C@@H](O)CC[C@H](O)[C@@H](O)C[C@@H](O)CC(=O)O[C@H]1C)C[C@H](O)[C@H]2C(=O)O ; measure: MIC99 ; read by: broth dilution / absorbance ; strain or isolate: ATCC 750 ; value: 0.78 µM
Cc1ccc(/C=C2\SC(=O)N(CC(O)(Cn3nccn3)c3ccc(F)cc3F)C2=O)c(C)c1 ; measure: MIC80 ; value: 8.5 µg/mL
CCOC(=O)c1c(N)oc2c(C)cc(O)c(C)c12 ; measure: MIC ; read by: broth dilution ; strain or isolate: KCCM 50662 ; value: 25 µg/mL
O=C(c1ccccc1)C(c1ccccc1)n1cnc2ccccc21 ; measure: MIC90 ; read by: agar ; value: 64 µg/mL
CCCCN(Cc1cn(Cc2ccccc2F)nn1)CC(O)(Cn1cncn1)c1ccc(F)cc1F ; measure: MIC80 ; value: 2 µg/mL
CC(C)(O)c1cn(-c2ccc(Cl)cc2)nn1 ; measure: MIC ; read by: broth dilution ; strain or isolate: URM 4790 ; value: 128 µg/mL
COc1ccc(N2C(=O)C=CC2=O)cc1 ; measure: MIC80 ; read by: broth dilution ; strain or isolate: KKP 334 ; value: 2 µg/mL
CCCCN(Cc1cn(Cc2ccc(Cl)cc2Cl)nn1)CC(O)(Cn1cncn1)c1ccc(F)cc1F ; measure: MIC80 ; value: 32 µg/mL
C[C@H]1[C@H](O)[C@@H](C)/C=C/C=C/C=C/C=C/C=C/C=C/C=C/[C@H](O[C@@H]2O[C@H](C)[C@@H](O)[C@H](N)[C@@H]2O)C[C@@H]2O[C@](O)(C[C@@H](O)C[C@@H](O)CC[C@H](O)[C@@H](O)C[C@@H](O)CC(=O)O[C@H]1C)C[C@H](O)[C@H]2C(=O)O ; measure: MIC50 ; strain or isolate: 11 isolates ; value: 1 µg/mL
C=CCc1ccc(O)c(OC)c1 ; measure: MIC90 ; read by: turbidity ; strain or isolate: 3013 ; value: 480 µg/mL
C[C@@H](c1ncncc1F)[C@](O)(Cn1cncn1)c1ccc(F)cc1F ; measure: MIC80 ; read by: broth dilution ; value: 0.045 µM
O=C(c1ccccc1)C(c1ccccc1)n1nnc2ccccc21 ; measure: MIC90 ; read by: agar ; value: >256 µg/mL
CCCCCCCCCCC(=O)OC1CCN(CC(O)(Cn2cncn2)c2ccc(F)cc2F)CC1 ; measure: MIC80 ; read by: broth dilution ; value: 0.508 µM
CCN1C(=O)C=CC1=O ; measure: MIC80 ; read by: broth dilution ; strain or isolate: KKP 334 ; value: 1 µg/mL
COc1ccc(/C=C/C(=O)OC2CCN(CC(O)(Cn3cncn3)c3ccc(F)cc3F)CC2)cc1OC ; measure: MIC80 ; read by: broth dilution ; value: 0.118 µM
Nc1ncccc1-c1cc(Cc2ccc(COc3ccccn3)cc2)no1 ; measure: MIC50 ; read by: broth dilution ; value: 0.03 µg/mL

The last 5 rows once more:

compound | measure | read by | strain or isolate | value
O=C(c1ccccc1)C(c1ccccc1)n1nnc2ccccc21 | MIC90 | agar | - | >256 µg/mL
CCCCCCCCCCC(=O)OC1CCN(CC(O)(Cn2cncn2)c2ccc(F)cc2F)CC1 | MIC80 | broth dilution | - | 0.508 µM
CCN1C(=O)C=CC1=O | MIC80 | broth dilution | KKP 334 | 1 µg/mL
COc1ccc(/C=C/C(=O)OC2CCN(CC(O)(Cn3cncn3)c3ccc(F)cc3F)CC2)cc1OC | MIC80 | broth dilution | - | 0.118 µM
Nc1ncccc1-c1cc(Cc2ccc(COc3ccccn3)cc2)no1 | MIC50 | broth dilution | - | 0.03 µg/mL

An empty or dashed field is not shown. Rows are shuffled and stem from different studies.